Pooled drug test results. Numbers come from NIAID ChemDB, via PubChem.

Common to all: tests in culture; agent: HIV-1; cell line: C8166; endpoint: EC50

Lines come from different laboratories, so protocols vary. Blank or dashed fields: not listed here. ECn: concentration that inhibits the pathogen or its effect by n%. Two numbers with a dash give a range or band.

{"compound": "CC(=O)OCC1=C[C@H]2[C@@H]3C(C)(C)[C@]3(O)[C@H](OC(=O)CCc3ccccc3)[C@@H](C)[C@]2(O)[C@@H]2C=C(C)C(=O)[C@@]2(O)C1", "strain or isolate": "IIIB", "read by": "p24 / ELISA", "value": "46.3 µM"}
{"compound": "CC(C)OC(=O)OCOP(=O)(CO[C@H](C)Cn1cnc2c(N)ncnc21)OCOC(=O)OC(C)C", "strain or isolate": "KM018", "read by": "p24 / ELISA", "value": "0.00384 µM"}
{"compound": "CC1=C[C@H]2[C@@]3(O)[C@H](C)[C@@H](OC(=O)CCCCCCCCCBr)[C@]4(OC(=O)CCCCCCCCCBr)[C@H]([C@@H]3C=C(CO)C[C@]2(O)C1=O)C4(C)C", "strain or isolate": "IIIB", "read by": "p24 / ELISA", "value": "19.9 µM"}
{"compound": "CCN1c2ncc(CCOc3ccc(C(=O)Nc4ccc(C(=O)O)cc4)cc3C)cc2C(=O)N(C)c2cccnc21", "strain or isolate": "IIIB", "read by": "p24", "value": "<0.01 µM"}
{"compound": "CCCCCOC(C(=O)O)c1c(C)nc2ccc(Br)cc2c1-c1ccc(Cl)cc1", "read by": "luciferase / reporter gene", "value": "<20 µM"}
{"compound": "CCN1c2ncc(CCOc3ccc(C(=O)NN)cc3C)cc2C(=O)N(C)c2cccnc21", "strain or isolate": "IIIB", "read by": "p24", "value": "<0.01 µM"}
{"compound": "CC/C=C\\C/C=C\\C/C=C\\C/C=C\\C/C=C\\CCCC(=O)O[C@@H]1[C@@H](C)[C@@]2(O)[C@@H](C=C(CO)C[C@]3(O)C(=O)C(C)=C[C@@H]23)[C@@H]2C(C)(C)[C@]12OC(=O)CCC", "strain or isolate": "IIIB", "read by": "syncytia / visual reading", "value": "1.17 µM"}
{"compound": "CCCC(C)(C)OC(C(=O)O)c1c(C)nc2ccc(Cl)cc2c1-c1ccc(Cl)cc1", "read by": "luciferase / reporter gene", "value": "<20 µM"}
{"compound": "CC1=C[C@H]2[C@@]3(O)[C@H](C)[C@@H](OC(=O)CCc4ccccc4)[C@]4(O)[C@H]([C@@H]3C=C(CO)C[C@]2(O)C1=O)C4(C)C", "strain or isolate": "IIIB", "read by": "p24 / ELISA", "value": "51.6 µM"}
{"compound": "CC(=O)[C@H](C)OC(C(=O)O)c1c(C)nc2ccc(Br)cc2c1-c1ccc(Cl)cc1", "read by": "luciferase / reporter gene", "value": "<20 µM"}
{"compound": "CCN1c2ncc(CCOc3ccc(-c4ccc(C(=O)O)cn4)cc3C)cc2C(=O)N(C)c2cccnc21", "changes": "RT-K103N Y181C", "read by": "p24", "value": "0.01–0.05 µM"}
{"compound": "CC(=O)OCC1=C[C@H]2[C@@H]3C(C)(C)[C@]3(O)[C@H](OC(=O)/C=C/c3ccccc3)[C@@H](C)[C@]2(O)[C@@H]2C=C(C)C(=O)[C@@]2(O)C1", "strain or isolate": "IIIB", "read by": "p24 / ELISA", "value": "29.42 µM"}
{"compound": "CCN1c2ncc(CCOc3ccc(C(=O)c4ccc(C(=O)O)cc4)cc3C)cc2C(=O)N(C)c2cccnc21", "strain or isolate": "IIIB", "read by": "p24", "value": "<0.01 µM"}
{"compound": "Cc1nc2ccc(Br)cc2c(-c2ccc(Cl)cc2)c1C(OCCCn1cccc1)C(=O)O", "read by": "luciferase / reporter gene", "value": "<20 µM"}
{"compound": "CCN1c2ncc(CCOc3ccc(-c4ccncc4)cc3)cc2C(=O)N(C)c2cccnc21", "changes": "RT-K103N Y181C", "read by": "p24", "value": "0.01–0.05 µM"}
{"compound": "CCCC(C(=O)O)c1c(C)nc2ccc(Cl)cc2c1-c1ccccc1Cl", "read by": "luciferase / reporter gene", "value": "<20 µM"}

Repeating the first 2 entries:

compound,strain or isolate,changes,read by,value
CC(=O)OCC1=C[C@H]2[C@@H]3C(C)(C)[C@]3(O)[C@H](OC(=O)CCc3ccccc3)[C@@H](C)[C@]2(O)[C@@H]2C=C(C)C(=O)[C@@]2(O)C1,IIIB,-,p24 / ELISA,46.3 µM
CC(C)OC(=O)OCOP(=O)(CO[C@H](C)Cn1cnc2c(N)ncnc21)OCOC(=O)OC(C)C,KM018,-,p24 / ELISA,0.00384 µM